According to patent US20080287356A1 (YEDA RESEARCH AND DEVELOPMENT, published 2008):

Molecular target: cell surface TNF on PMA-LPS-GM6001-activated human monocytic THPI cells (human, UniProt P01375 1-233)
Assay: cell-based or functional assay

B1: non chimeric recombinant human TBP-1 (HPLC purified, of CHO origin) (receptor)
chain: DSVCPQGKYIHPQNNSICCTKCHKGTYLYNDCPGPGQDTDCRECESGSFTASENHLRHCLSCSKCRKEMGQVEISSCTVDRDTVCGCRKNQYRHYWSENLFQCFNCSLCLNGTVHLSCQEKQNTVCTCHAGFFLRENECVSCSNCKKSLECTKLCLPQIEN
  protection of activated THPI cells from TBP-YopP toxicity: 100 fold excess
